Columns and labels:
[1] = test system: DimDAF-12_R674K; test: cell-based transactivation assay, mutant R674K
[2] = test system: DimDAF-12_Q713L; test: cell-based transactivation assay, mutant Q713L; details: 0.01 or 0.1 µM
[3] = test system: DimDAF-12_R640C; test: cell-based transactivation assay, mutant R640C
[4] = test system: DimDAF-12 T637V/R678V; test: cell-based transactivation assay, double mutant T637V/R678V; details: 0.01 or 0.1 µM
[5] = test system: DimDAF-12 T637V/R674K/R678V; test: cell-based transactivation assay, triple mutant T637V/R674K/R678V; details: 0.01 or 0.1 µM
[6] = test system: DimDAF-12_Q713E; test: cell-based transactivation assay, mutant Q713E; details: 0.01 or 0.1 µM

Compound | DA-dependent luciferase activity of mutant versus wild-type ([1]; 0.01 or 0.1 µM) | DA-dependent luciferase activity of mutant versus wild-type [2] | DA-dependent luciferase activity of mutant versus wild-type ([3]; 0.01 µM) | DA-dependent luciferase activity of mutant versus wild-type [4] | DA-dependent luciferase activity of mutant versus wild-type [5] | DA-dependent luciferase activity of mutant versus wild-type ([1]; 0.01 µM) | DA-dependent luciferase activity of mutant versus wild-type [6] | DA-dependent luciferase activity of mutant versus wild-type ([3]; 0.1 µM)
CC(CCCC(C)C1CCC2C3=CCC4CC(=O)CCC4(C)C3CCC21C)C(=O)O [Δ7-DA, (25S)-Δ7-dafachronic acid] | did not affect | increasing | significant increase | significantly increased | significantly increased |  |  | 
CC(CCCC(C)C1CCC2C3CCC4=CC(=O)CCC4(C)C3CCC12C)C(=O)O (stereo not drawn) |  | compromised the activity | significant decrease | conserved | completely abolished | significantly decreased | compromised the activity | increase

Source: article PMC7343802, “The development of the dog heartworm is highly sensitive to sterols which activate the orthologue of the nuclear receptor DAF-12” (Scientific Reports, 2020)
